Pooled drug test results. Numbers come from NIAID ChemDB, via PubChem.

Shared fields: tests in culture; agent: HIV-1

a–b is a range or a potency band. Blank or dashed fields: not listed here. ECn is the concentration giving n% inhibition of infection, replication or growth. Neighbouring rows are from separate reports.

structure,changes,read-out,setting,strain,read by,cell line,result
Cc1cn([C@H]2C[C@H](N=[N+]=[N-])[C@@H](COP(=O)(O)OC[C@@H]3CC[C@H](n4ccc(N)nc4=O)O3)O2)c(=O)[nH]c1=O,-,EC50,-,IIIB,cytopathic effect / XTT,CEM + CEM-SS,0.0259–0.0831 µM
C/C(=C\Cn1cc(C)c(=O)[nH]c1=O)CO,-,EC50,-,-,-,-,>100 µg/mL
Cc1nc2c(N)ncnc2n1[C@H]1CC[C@@H](CO)O1,-,EC50,-,-,cytopathic effect,CEM,>100 µg/mL
O=C(CSc1nc2ccc(NC(=O)c3ccccc3C(=O)O)cc2s1)NCc1ccccc1,-,EC50,-,IIIB,p24,MT-2,>10 µM
C[C@@H]1CN(C(=O)c2ccccc2)CCN1C(=O)C(=O)c1c[nH]c2c(NC(=O)C[N+](C)(C)C)cccc12,-,EC50,-,-,luciferase / reporter gene,HeLa,<1 µM
CC(C)[C@H](NC(=O)[C@H](CO)NC(=O)[C@@H](N)CSSCC(=O)O)C(=O)N[C@H](C(=O)N[C@@H](CSSCC(=O)O)C(=O)NCC(=O)O)[C@@H](C)O,-,EC50,-,IIIB,p24,PBMC(PHA STIM.) + PBMC,<0.132 µM
CC(=O)O[C@@H]1C[C@@H](C)[C@@H]2C[C@@H]2C2=C(C(=O)OC2)[C@@H]1[C@H](C)CCC=C(C)C,-,EC50,pseudotyped,-,luciferase,293T,>30 µM
CCOc1cccc(-c2cc(C(=O)N/N=C/c3ccc(OC)c(CN4CCOCC4)c3)c3ccccc3n2)c1,-,EC50,-,IIIB,p24,MT-2,<10 µM
CS(=O)(=O)O.Cc1c(O)cccc1C(=O)N[C@@H](CSc1ccccc1)[C@H](O)CN1C[C@H]2CCS[C@H]2C[C@H]1C(=O)NC(C)(C)C,-,EC95,-,HXB2,cytopathic effect / XTT,CEM + CEM-SS,0.018 µM
Cc1c(OCC2CCC2)c2cc(F)ccc2[nH]c1=O,RT-K103N V108I,EC50,-,NNRTI-resistant (RT K103N V108I),β-galactosidase,HeLa + HeLa-MAGI,>2 µM
CC(C)[C@H](NC(=O)[C@H](CO)NC(=O)[C@@H](N)CS)C(=O)N[C@H](C(=O)N[C@@H](CS)C(=O)NCC(=O)O)[C@@H](C)O,-,EC50,-,IIIB,p24,PBMC(PHA STIM.) + PBMC,<0.66 µM
CC1NC(=O)N(c2cccc3c(C(=O)C(=O)N4CCN(C(=O)c5ccccc5)C[C@H]4C)c[nH]c23)C1=O,-,EC50,-,-,luciferase / reporter gene,HeLa,<1 µM
O=c1ccn(CC=C(CO)CO)c(=O)[nH]1,-,EC50,-,-,-,-,>100 µg/mL
COc1cc(/C=C2\C(=O)N(c3ccccc3)N=C2c2ccccc2)cc(Br)c1OCC(N)=O,-,EC50,-,IIIB,p24,MT-2,<10 µM
O=c1ccn([C@H]2C[C@@H](O)[C@H](CO)O2)c(=O)[nH]1,-,EC50,-,IIIB,cytopathic effect / MTT,MT-4,>100 µM
Cc1ccnc2c1N(C(=O)CNC(=O)c1cnccn1)C(=O)c1cccnc1N2C1CC1,-,EC50,-,-,cytopathic effect / XTT,CEM,<0.0636 µM
Cc1cc(NC(=O)C(=O)NCCN2CCN(C(=O)c3ccccc3F)CC2)ccc1Br,-,EC50,-,IIIB,p24,MT-2,>10 µM
C=C1C[C@@H](O)[C@@H]([C@@](C)(O)CCC=C(C)C)[C@@H](O)[C@@H]2C(C)=CC[C@@H]12,-,EC50,pseudotyped,-,luciferase,293T,26.1 µM
O=c1[nH]c(=O)n(CC=C(CO)CO)cc1I,-,EC50,-,-,-,-,>100 µg/mL
CC(=O)O[C@H]1[C@H](O)C2=C(CC[C@H]3C(C)(C)[C@@H](OS(=O)(=O)O)[C@H](OC(=O)CCCCCCCCCCCCCCCO)C[C@]23C)C2=CC[C@H]([C@H](C)CCC3(C(C)(C)O)CO3)[C@]21C,-,EC50,-,-,antigen,H9,<6 µM
CC(=O)[C@H]1C/C=C(\C)C(=O)C[C@@H]2[C@@](C)(C/C=C/1C)CC[C@@]2(O)C(C)C,-,EC50,pseudotyped,-,luciferase,293T,>30 µM
Cc1cn([C@@H]2O[C@@H](CO)[C@H](O)[C@H]2O)c(=O)[nH]c1=O,-,EC50,-,IIIB,cytopathic effect / MTT,MT-4,>1000 µM
CC(=O)[C@H]1/C2=C(C)/C=C\C=C(/C)C(=O)C2[C@@H]2[C@]1(C)CC[C@@]2(O)C(C)C,-,EC50,pseudotyped,-,luciferase,293T,>30 µM
Nc1ncnc2c1ncn2[C@@H]1O[C@@H](CO)[C@H](O)[C@H]1O,-,EC50,-,IIIB,cytopathic effect / MTT,MT-4,>100 µM
N#CC(=C1CCN(C(=O)C(=O)c2c[nH]c3c(NC(=O)NC(CCC(=O)O)C(=O)O)cccc23)CC1)c1ccccc1,-,EC50,-,-,luciferase / reporter gene,HeLa,<1 µM
C=C(CC[C@@H](C)[C@H]1CC=C2C3=C([C@@H](O)[C@H](OC(C)=O)[C@@]21C)[C@@]1(C)C[C@@H](O)[C@H](OC(=O)CCC(=O)O)C(C)(C)[C@@H]1CC3)C(C)C,-,EC50,-,-,antigen,H9,<6 µM
Nc1ncnc2c1ncn2[C@H]1C[C@@H](O)[C@H](CO)O1,-,EC50,-,IIIB,cytopathic effect / MTT,MT-4,>1000 µM
Cc1ccc(C)n1-c1ccc(C(=O)O)c(O)c1,-,EC90,-,BCF02 R5 GROUP O,p24,PBMC + MT-2,8.94 µM
C/C(=C\Cn1ccc(N)nc1=O)CO,-,EC50,-,-,-,-,>100 µg/mL
CC(=O)OC[C@@H]1/C(C=O)=C\C=C(\C)CC[C@@H](O)[C@H]1[C@H](C)CCC=C(C)C,-,EC50,pseudotyped,-,luciferase,293T,>30 µM
CCCCCCCCCCCCCCCC(=O)Nc1ccn([C@H]2CC[C@@H](COP(=O)(O)OC[C@H]3O[C@@H](n4cc(C)c(=O)[nH]c4=O)C[C@@H]3N=[N+]=[N-])O2)c(=O)n1,-,EC50,-,IIIB,cytopathic effect / XTT,CEM + CEM-SS,0.15–71 µM
C=C(CC[C@@H](C)[C@H]1CC=C2C3=C([C@@H](O)[C@H](OC(C)=O)[C@@]21C)[C@@]1(C)C[C@@H](O)[C@H](OS(=O)(=O)O)C(C)(C)[C@@H]1CC3)C(C)C,-,EC50,-,-,antigen,H9,<25 µM
N[C@H](C(=O)Nc1cncc(F)c1CC[C@@H]1CN[C@H](COC(=O)NCC(F)(F)F)CO1)[C@@H](c1ccc(Cl)cc1)c1cc(F)cc(F)c1,-,EC50,-,IIIB,fluorescence,MT4-GFP,0.049 µM
Cc1ccnc2c1N(C(=O)CNNC(=O)c1ccncc1)C(=O)c1cccnc1N2C1CC1,-,EC50,-,-,cytopathic effect / XTT,CEM,<0.0636 µM
C=C(C)[C@@H]1C[C@@H](C)[C@H](C)c2cc(O)c(C)cc21,-,EC50,-,-,cytopathic effect,C8166,12.8 µg/mL
COC(=O)C(O)C(O)C(=O)Nc1cccc2c(C(=O)C(=O)N3CCN(C(=O)c4ccccc4)C[C@H]3C)c[nH]c12,-,EC50,-,-,luciferase / reporter gene,HeLa,<1 µM

Again, the opening 3 rows:

structure	changes	read-out	setting	strain	read by	cell line	result
Cc1cn([C@H]2C[C@H](N=[N+]=[N-])[C@@H](COP(=O)(O)OC[C@@H]3CC[C@H](n4ccc(N)nc4=O)O3)O2)c(=O)[nH]c1=O	-	EC50	-	IIIB	cytopathic effect / XTT	CEM + CEM-SS	0.0259–0.0831 µM
C/C(=C\Cn1cc(C)c(=O)[nH]c1=O)CO	-	EC50	-	-	-	-	>100 µg/mL
Cc1nc2c(N)ncnc2n1[C@H]1CC[C@@H](CO)O1	-	EC50	-	-	cytopathic effect	CEM	>100 µg/mL